Assay results taken from patent US11124497B1.

Protein sequences, listed by entry. Tags and fused reporters are not part of them. Residues count along the entry.
UniProt P0C6X1, 2966-3267 limits assumed: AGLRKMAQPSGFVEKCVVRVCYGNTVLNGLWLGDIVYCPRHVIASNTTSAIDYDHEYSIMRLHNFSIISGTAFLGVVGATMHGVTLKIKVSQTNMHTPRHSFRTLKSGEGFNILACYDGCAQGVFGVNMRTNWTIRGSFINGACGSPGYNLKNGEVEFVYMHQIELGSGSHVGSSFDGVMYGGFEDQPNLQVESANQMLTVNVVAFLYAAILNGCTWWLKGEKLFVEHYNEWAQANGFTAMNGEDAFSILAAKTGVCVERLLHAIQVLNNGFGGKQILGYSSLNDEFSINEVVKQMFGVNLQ

Columns and labels:
SARS-COV2 Mpro = SARS-COV2 Mpro (Severe acute respiratory syndrome coronavirus 2 (2019-nCoV) (SARS-CoV-2), UniProt P0DTD1); assay: COVID-19; type: biochemical; details: read-out: Sars CoV2 mPRO IC50; 25 nM Mpro, 25 μM substrate
229E mPRO = 229E mPRO (Human coronavirus 229E (HCoV-229E), UniProt P0C6X1); assay: 229E mPRO enzymatic assay; type: biochemical, Human Coronavirus (HCov) 229E; details: read-out: 229E mPRO IC50

| SMILES | IC50 (SARS-COV2 Mpro) [µM] | IC50 (229E mPRO) [µM] |
| --- | --- | --- |
| N#CC(CC1CCCNC1=O)NC(=O)C1CC2(CCCCC2)CN1C(=O)c1cc2ccc(Cl)cc2[nH]1 (single isomer, unassigned) | < 22 |  |
| N#C[C@H](C[C@@H]1CCCNC1=O)NC(=O)C1CC2(CN1C(=O)c1cc3cccc(Cl)c3[nH]1)CC(F)(F)C2 (single isomer, unassigned) | < 22 | < 22 |
